Pooled drug test results. Numbers come from NIAID ChemDB, via PubChem.

Common to all: whole-cell or culture tests; species: Mycobacterium tuberculosis

MIC bound comes from a single tested concentration. MIC50, MIC90 and the like: level of inhibition, or share of isolates inhibited. Percent inhibition refers to the dose given; in toxicity tests it is the harm to the cells. Blank or dashed fields: not listed here. ECn: concentration that inhibits the pathogen or its effect by n%. Neighbouring rows are from separate reports.

structure,strain or isolate,mutations,cells,read by,setting,endpoint,tested at,result
C=CCn1c(-c2cc3cc(Br)ccc3oc2=O)cs/c1=N\N=C\c1ccc(O)c(OCC)c1,H37Rv,,,,,inhibition,12.5 µg/mL,91%
CC(C)c1cc(=O)c2cc3[nH]c4ccccc4c3cc2[nH]1,H37Rv,,,BACTEC,,MIC bound,,≤12.5 µg/mL
C[C@@H](O)[C@H]1C(=O)N2C(C(=O)O)=C(SCCN=CN)C[C@H]12,9 strains,,,BACTEC,,inhibition,100 µg/mL,66.7%
CCCN(CCC)/N=C/c1c2c(O)c3c(O)c(C)c4c(c3c1O)C(=O)[C@@](C)(O/C=C/[C@H](OC)[C@@H](C)[C@@H](OC(C)=O)[C@H](C)[C@H](O)[C@H](C)[C@@H](O)[C@@H](C)/C=C/C=C(/C)C(=O)N2)O4,H37Rv,,,,,MIC,,0.05 µg/mL
O=C(Oc1ccc(Cl)cc1C(=O)Nc1ccc(F)cc1)c1cnccn1,H37Rv 311/88,,,,21 d,MIC,,8 µM
CCN(CC)/N=C/c1c2c(O)c3c(O)c(C)c4c(c3c1O)C(=O)[C@@](C)(O/C=C/[C@H](OC)[C@@H](C)[C@@H](OC(C)=O)[C@H](C)[C@H](O)[C@H](C)[C@@H](O)[C@@H](C)/C=C/C=C(/C)C(=O)N2)O4,H37Rv,,,,,MIC,,0.02 µg/mL
CCCCS(=O)(=O)Nc1ccc2[nH]c(C(=O)OC(C)(C)C)c(C)c2c1,H37Rv,,,resazurin,,MIC90,,0.78 µM
O=C1Oc2cc3c(c4cccc1c24)OCN(c1ccccc1)C3,H37Rv,,,BACTEC,,MIC bound,,>12.5 µg/mL
CC1(C)S[C@@H]2[C@H](NC(=O)[C@H](N)c3ccccc3)C(=O)N2[C@H]1C(=O)O,DGN,,,,,MIC,,>92 µM
CCC1OC(=O)CC(O)C(C)C(OC2OC(C)C(O)C(N(C)C)C2O)C(CC=O)CC(C)C(=O)/C=C\C2(C)OC2C1C,H37Rv,,,BACTEC,,MIC bound,,>12.5 µg/mL
CCCCS(=O)(=O)Nc1ccc2[nH]c(C(=O)NC3CCCOC3)c(C)c2c1,H37Rv,,,resazurin,,MIC90,,6.2 µM
O=C([O-])C1=NN(c2ccc(S(=O)(=O)[O-])cc2)C(=O)C1N=Nc1ccc(S(=O)(=O)[O-])cc1.[Na+].[Na+].[Na+],H37Rv,,,BACTEC,,inhibition,12.8 µg/mL,6%
CC(=O)OCC1=C(C(=O)O)N2C(=O)[C@@H](NC(=O)CSc3ccncc3)[C@H]2SC1,8 strains,,,BACTEC,,EC50,,<100 µg/mL
CC(NNC(=O)c1ccncc1)c1ccc(Cl)c(Cl)c1,Rifampicin-resistant,,,,,MIC,,3.13 µg/mL
CC[C@@H](CO)NCCN[C@@H](CC)CO,Isolate 5,,,,,MIC,,8 µg/mL
O=C(Oc1ccc(Br)cc1C(=O)Nc1ccc(C(F)(F)F)cc1)c1cnccn1,multidrug resistant 234/2005,,,,21 d,MIC,,0.5 µM
O=c1[nH][nH]c2ccccc12,,,,,,MIC,,>200 µg/mL
C[C@@H]1CN(c2c(F)c(N)c3c(=O)c(C(=O)O)cn(C4CC4)c3c2F)C[C@H](C)N1,MDR-3948 (MDR),,,,,MIC,,0.2 µg/mL
CO[C@H]1/C=C/O[C@@]2(C)Oc3c(C)c(O)c4c(O)c(c(/C=N/N5CCN(C)CC5)c(O)c4c3C2=O)NC(=O)/C(C)=C\C=C\[C@H](C)[C@H](O)[C@@H](C)[C@@H](O)[C@@H](C)[C@H](OC(C)=O)[C@@H]1C,Isolate 2,,,,,MIC,,>32 µg/mL
O=C(CC(=O)N/N=C/c1ccoc1)N/N=C/c1ccoc1,,,,,,MIC,,>100 µg/mL
O=C1NC(NNC(=O)c2ccncc2)=N/C1=C\c1ccccc1Cl,Erdman,,,,,MIC,,3.13 µg/mL
C/C(=N\NC(=S)N(C)C)c1ccccn1.[Cu][Br],TF274,,,,,MIC90,,1.56 µM
O=C1C=CC(=NC2=C(Cl)C(=O)c3ccccc3C2=O)C=C1,H37Rv,,,BACTEC,,inhibition,12.5 µg/mL,96%
CC(=O)NC[C@H]1CN(c2ccc(N3CCN(Cc4ccc([N+](=O)[O-])s4)CC3)c(F)c2)C(=O)O1,59 isolates,,,,,Geometric mean MIC,,0.052 µg/mL
COc1c(N2CC[C@@H](C(C)(C)N)C2)c(F)cc2c(=O)c3c(=O)[nH]sc3n(C3CC3)c12,Beijing strain isolate 13,,,,,MIC,,0.06 µg/mL
CO[C@H]1/C=C/O[C@@]2(C)Oc3c(C)c(O)c4c(O)c(c(/C=N/N5C(C)CN(Cc6ccccc6)CC5C)c(O)c4c3C2=O)NC(=O)/C(C)=C\C=C\[C@H](C)[C@H](O)[C@@H](C)[C@@H](O)[C@@H](C)[C@H](OC(C)=O)[C@@H]1C,H37Rv,,,,,MIC,,0.2 µg/mL
CC(NNC(=O)c1cc[n+]([B]C#N)cc1)c1ccc(Cl)c(Cl)c1,H37Rv,,,,,MIC,,>6.25 µg/mL
CN1CCN(c2cc3c(cc2F)c(=O)c(C(=O)O)cn3-c2ccc(F)cc2)CC1,12 strains,,,BACTEC,,EC50,,<100 µg/mL
O=S1(=O)OC(c2cc(Br)c(O)c(Br)c2)(c2cc(Br)c(O)c(Br)c2)c2ccccc21,H37Rv,,,BACTEC,,inhibition,6.25 µg/mL,0%
O=C1NC(=NCc2ccccc2)N/C1=C\c1ccc(Cl)cc1,H37Rv,,VERO,resazurin,,MIC,,>12.5 µg/mL
O=C(Oc1cc(Cl)ccc1C(=O)Nc1ccc(C(F)(F)F)cc1)c1cnccn1,extensively drug resistant Praha 131,,,,21 d,MIC,,0.125 µM
COC1=CC(=C2C=C(OC)C(=O)C(OC)=C2)C=C(OC)C1=O,H37Rv,,,BACTEC,,MIC bound,,>12.5 µg/mL
CO/N=C(\C(=O)N[C@@H]1C(=O)N2C(C(=O)O)=CCS[C@H]12)c1csc(N)n1,8 strains,,,BACTEC,,EC50,,<100 µg/mL
Cc1c2ccncc2c(C)c2c1[nH]c1ccc(O)cc12,H37Rv,,,resazurin,,MIC,,1.56 µg/mL
CC(C)CCCC(C)C1CCC2C3CC=C4C/C(=N/NC(=O)c5ccccc5)CCC4(C)C3CCC12C,,,,,,MIC,,>1000 µg/mL
NNC(=O)c1ccncc1,H37Rv,,,visual reading / absorbance,,MIC90,,0.07 µM
O=C(Oc1ccc(Cl)cc1C(=O)Nc1cccc(C(F)(F)F)c1)c1cnccn1,multidrug resistant 9449/2006,,,,14 d,MIC,,1 µM
CO/N=C/c1c2c(O)c3c(O)c(C)c4c(c3c1O)C(=O)[C@@](C)(O/C=C/[C@H](OC)[C@@H](C)[C@@H](OC(C)=O)[C@H](C)[C@H](O)[C@H](C)[C@@H](O)[C@@H](C)/C=C/C=C(/C)C(=O)N2)O4,H37Rv,,,,,MIC,,0.1 µg/mL
O=C(O)CCSc1nc2c(=O)[nH][nH]c(=O)c2n1Cc1ccccc1,H37Rv,,,BACTEC,,inhibition,12.5 µg/mL,0%
C/C(=N\NC(=O)c1ccncc1)c1ccccc1F,Thiacetazone-resistant,,,,,MIC,,>6.25 µg/mL
NC1(C(=O)O)CSSC1,H37Rv,,,BACTEC,,inhibition,12.5 µg/mL,11%
CCCCn1c(-c2cc3ccccc3oc2=O)cs/c1=N\N=C\c1ccc(O)c(OCC)c1,H37Rv,,,,,EC50,,<12.5 µg/mL
N#C[B][n+]1ccc(C(=O)NNCc2ccccc2)cc1,Erdman,,Macrophages,colony count,inside macrophages,EC50,,<0.116 µg/mL
CO[C@H]1/C=C/O[C@@]2(C)Oc3c(C)c(O)c4c(O)c(c(C=NN)c(O)c4c3C2=O)NC(=O)/C(C)=C\C=C\[C@H](C)[C@H](O)[C@@H](C)[C@@H](O)[C@@H](C)[C@H](OC(C)=O)[C@@H]1C,H37Rv,,,,,MIC,,1 µg/mL
CCOC(=O)n1c(=O)nc2c3c(ncn21)Oc1c(c(-c2ccccc2)nn1-c1ccccc1)C3c1ccc(Cl)cc1,H37Rv,,,resazurin,,inhibition,6.25 µg/mL,100%
C/C(=N\NC(=O)c1ccccc1)c1ccccc1,,,,,,MIC,,10 µg/mL
Oc1c(CN2CCCC2)cc(Nc2cc(/C=C/c3ccc(Cl)cc3)nc(/C=C/c3ccc(Cl)cc3)n2)cc1CN1CCCC1,H37Rv,,,resazurin,,inhibition,6.25 µg/mL,89%
O=C1NC(NNC(=O)c2ccncc2)=N/C1=C\c1ccc(Cl)cc1,Ciprofloxacin-resistant,,,,,MIC,,3.13 µg/mL
COc1cc2c(oc(=O)c3cc(C)cc(OC)c32)c2c(C3OC(C)C(O)C(C)(O)C3O)ccc(O)c12,H37Rv,,VERO,,,MIC,,6.25 µg/mL
C[C@H]1COc2c(N3CCN(C)CC3)c(F)cc3c(=O)c(C(=O)O)cn1c23,Clinical isolate 19 RP,INH RIF EMB resistant,,resazurin,,MIC,,0.25 µg/mL
O=C1NC(Nc2ccc(Cl)cc2)=N/C1=C\c1ccccc1Cl,H37Rv,,,,,MIC,,>12.5 µg/mL
O=c1oc2ccc(Br)cc2cc1-c1cs/c(=N\N=C\c2cc(Br)ccc2O)n1C1CCCCC1,H37Rv,,,,,MIC,,>12.5 µg/mL
O=C(N/N=C/c1cccc(F)c1)c1ccncc1,Rifampicin-resistant,,,,,MBC,,0.0125 µg/mL
CO[C@H]1/C=C/O[C@@]2(C)Oc3c(C)c(O)c4c(O)c(c(/C=N/N5CCN(C6CCCC6)CC5)c(O)c4c3C2=O)NC(=O)/C(C)=C\C=C\[C@H](C)[C@H](O)[C@@H](C)[C@@H](O)[C@@H](C)[C@H](OC(C)=O)[C@@H]1C,Isolate 880902 rifampicin-resistant,,,,,MIC,,64 µg/mL
CCOC(=O)NC(C(=O)OCC)(N1CCN(c2cc3c(cc2F)c(=O)c(C(=O)O)cn3CC)CC1)C(F)(F)F,H37Rv,,VERO,,,MIC,,6.25 µg/mL
CN[C@@H]1[C@H](O[C@H]2[C@H](O[C@H]3[C@H](O)[C@@H](O)[C@H](N=C(N)N)[C@@H](O)[C@@H]3N=C(N)N)O[C@@H](C)[C@]2(O)C=O)O[C@@H](CO)[C@H](O)[C@H]1O,H37Rv,EJMCh4/1 MmpL3 (V285A),,visual reading,,MIC90,,1.4 µM
Cn1nnc(/C(N)=N/N=C/c2ccccc2)n1,H37Rv,,,BACTEC,,MIC,,≥12.5 µg/mL
CCCCS(=O)(=O)Nc1ccc2[nH]c(C(=O)NC3CCC3)c(C)c2c1,H37Rv,,,resazurin,,MIC90,,1.56 µM
CC[C@H]1OC(=O)[C@H](C)[C@@H](O[C@H]2C[C@@](C)(OC)[C@@H](O)[C@H](C)O2)[C@H](C)[C@@H](O[C@@H]2O[C@H](C)C[C@H](N(C)C)[C@H]2O)[C@](C)(OC)C[C@@H](C)C(=O)[C@H](C)[C@@H](O)[C@]1(C)O,S-3M (susceptible),,,,,MIC,,>8 µg/mL
COc1cccc2c1C(=O)c1c(O)c3c(c(O)c1C2=O)C[C@](O)(c1csc(-c2ccncc2)n1)C[C@H]3OC1CC(N)C(O)C(C)O1.Cl,H37Rv,,,BACTEC,,MIC,,≥12.5 µg/mL
CCCCS(=O)(=O)Nc1ccc2[nH]c(C(N)=O)c(C)c2c1,DRM167 8x3,I145T DG167-resistant,,resazurin,,MIC90,,>100 µM
OCCCNc1nc2cc(Cl)ccc2c2ccc(Cl)cc12,H37Rv,,,BACTEC,,MIC bound,,>12.5 µg/mL
CCCCS(=O)(=O)Nc1ccc2[nH]c(C(=O)NCCc3ccccc3)c(C)c2c1,H37Rv,,,resazurin,,MIC90,,>100 µM
O=C(NNCc1ccc(F)cc1)c1ccncc1,H37Rv,,,,,MIC,,0.39 µg/mL
CN[C@@H]1[C@H](O[C@H]2[C@H](O[C@H]3[C@H](O)[C@@H](O)[C@H](N=C(N)N)[C@@H](O)[C@@H]3N=C(N)N)O[C@@H](C)[C@]2(O)C=O)O[C@@H](CO)[C@H](O)[C@H]1O,Isolate 15,,,,,MIC,,>128 µg/mL
Cc1ccc(NC(=O)c2cc(S(=O)(=O)n3cc[nH]c3=O)c(S)cc2Cl)cc1,H37Rv,,,resazurin,,MIC bound,,>6.25 µg/mL
O=C1NC(NNC(=O)c2ccncc2)=N/C1=C\c1cccc(Cl)c1,Ethambutol-resistant,,,,,MIC,,≤0.39 µg/mL
O=C(Oc1ccc(Cl)cc1C(=O)Nc1ccc(Cl)c(Cl)c1)c1cnccn1,extensively drug resistant Praha 131,,,,21 d,MIC,,1 µM
Brc1ccc2nc(CCC3CCCCC3)[nH]c2c1,H37Rv,6B MmpL3 (V240A),,visual reading / absorbance,,MIC90,,22.8 µM
O=C(O)c1cn(-c2ccc(F)cc2)c2cc(N3CCNCC3)c(F)cc2c1=O,12 strains,,,BACTEC,,inhibition,100 µg/mL,100%
CCCCn1c(-c2cc3ccccc3oc2=O)cs/c1=N\N=C\c1cc(Br)ccc1O,H37Rv,,,,,EC50,,>12.5 µg/mL
CCOc1c(N=Nc2ccccc2Cl)c(-c2ccccc2)nn1C(=S)S,H37Rv,,,BACTEC,,MIC bound,,>12.5 µg/mL
COC(=O)c1cnccn1,331/88,,,,14 d,MIC,,>500 µM
CCCCN(CCCC)CCNc1ccc(Cl)c2oc3cc(C)ccc3c(=O)c12.Cl,H37Rv,,,BACTEC,,MIC bound,,>12.5 µg/mL
Nc1ccc(C(=O)NNC(=O)c2ccc(N)cc2)cc1,,,,,,MIC,,>200 µg/mL

The last 8 rows once more:

structure,strain or isolate,mutations,cells,read by,setting,endpoint,tested at,result
O=C(Oc1ccc(Cl)cc1C(=O)Nc1ccc(Cl)c(Cl)c1)c1cnccn1,extensively drug resistant Praha 131,,,,21 d,MIC,,1 µM
Brc1ccc2nc(CCC3CCCCC3)[nH]c2c1,H37Rv,6B MmpL3 (V240A),,visual reading / absorbance,,MIC90,,22.8 µM
O=C(O)c1cn(-c2ccc(F)cc2)c2cc(N3CCNCC3)c(F)cc2c1=O,12 strains,,,BACTEC,,inhibition,100 µg/mL,100%
CCCCn1c(-c2cc3ccccc3oc2=O)cs/c1=N\N=C\c1cc(Br)ccc1O,H37Rv,,,,,EC50,,>12.5 µg/mL
CCOc1c(N=Nc2ccccc2Cl)c(-c2ccccc2)nn1C(=S)S,H37Rv,,,BACTEC,,MIC bound,,>12.5 µg/mL
COC(=O)c1cnccn1,331/88,,,,14 d,MIC,,>500 µM
CCCCN(CCCC)CCNc1ccc(Cl)c2oc3cc(C)ccc3c(=O)c12.Cl,H37Rv,,,BACTEC,,MIC bound,,>12.5 µg/mL
Nc1ccc(C(=O)NNC(=O)c2ccc(N)cc2)cc1,,,,,,MIC,,>200 µg/mL